Anti-infective test results gathered from many reports (values: NIAID ChemDB through PubChem).

Common to all: tests in culture; agent: Candida albicans; method: broth dilution; endpoint: MIC

Rows are shuffled and stem from different studies. Blank or dashed fields: not listed here.

SMILES | conditions | strain | result
Nc1[nH]c(=O)ncc1F | pH 7 | 15 isolates | 0.125 µg/mL
CCC(C)CC(C)CCCCCCCCC(=O)N[C@H]1C[C@@H](O)[C@H](NCCN)NC(=O)[C@@H]2[C@@H](O)CCN2C(=O)[C@H]([C@H](O)CCN)NC(=O)[C@H]([C@H](O)[C@@H](O)c2ccc(O)cc2)NC(=O)[C@@H]2C[C@@H](O)CN2C(=O)[C@H]([C@@H](C)O)NC1=O |  | 373 | 0.12 µg/mL
COc1cc(NC(C)CCCNC(=O)CC(NC(=O)[C@@H](N)CCCN=C(N)N)C(=O)O)c2nc(C(C)(C)C)ccc2c1 |  |  | >20 µg/mL
CCCCCCCC/C=C\CCCCCCCC(=O)NCCCN |  | ATCC 18804 | 128 µg/mL
N=c1oc2ccccc2c2csc(N)c12 |  | ATCC 2091 | 128 µg/mL
CCC(C)CC(C)CCCCCCCCC(=O)N[C@H]1C[C@@H](O)[C@H](NCCN)NC(=O)[C@@H]2[C@@H](O)CCN2C(=O)[C@H]([C@H](O)CCN)NC(=O)[C@H]([C@H](O)[C@@H](O)c2ccc(O)cc2)NC(=O)[C@@H]2C[C@@H](O)CN2C(=O)[C@H]([C@@H](C)O)NC1=O | pH 6 | 15 isolates | 0.06 µg/mL
COc1cc(NC(C)CCCNC(=O)[C@H](CCCN=C(N)N)NC(=O)[C@@H](N)CCCN=C(N)N)c2nc(C(C)(C)C)ccc2c1 |  |  | >20 µg/mL
C/C(=N\NC(=S)Nc1ccc(C)cc1)c1ccccn1 |  | ATCC 10231 | 23.9 µM
Cc1ccc([C@H]2SCC(=O)N2c2nc(N3CCOCC3)n[nH]2)cc1 |  | A39 | 12.5 µg/mL
COc1cc(NC(C)CCCNC(=O)[C@@H](CCCN=C(N)N)NC(=O)[C@H](N)CCCN=C(N)N)c2ncccc2c1 |  |  | >20 µg/mL
CN1CCN(c2n[nH]c(N3C(=O)CS[C@@H]3c3ccc4c(c3)OCO4)n2)CC1 |  | 149.97 | 1.56 µg/mL
CC[C@@H]([C@H](C)O)n1ncn(-c2ccc(N3CCN(c4ccc(OC[C@@H]5CO[C@@](Cn6cncn6)(c6ccc(F)cc6F)C5)cc4)CC3)cc2)c1=O |  | 373 | 0.25 µg/mL
COc1ccc([C@H]2SC(C)C(=O)N2c2nc(N3CCOCC3)n[nH]2)cc1OC |  | A39 | 10 µg/mL
C[C@H]1[C@H](O)[C@@H](C)/C=C/C=C/C=C/C=C/C=C/C=C/C=C/[C@H](O[C@@H]2O[C@H](C)[C@@H](O)[C@H](N)[C@@H]2O)C[C@@H]2O[C@](O)(C[C@@H](O)C[C@@H](O)CC[C@H](O)[C@@H](O)C[C@@H](O)CC(=O)O[C@H]1C)C[C@H](O)[C@H]2C(=O)O |  | n. 1r | 2 µM
COc1cc(NC(C)CCCNC(=O)CCC(NC(=O)[C@@H](N)CCCN=C(N)N)C(=O)O)c2nc(C(C)(C)C)ccc2c1 |  |  | >20 µg/mL
C=C1C[C@@H]2C[C@@H]3CCO[C@@H](O3)c3coc(n3)/C=C/C[C@H]3O[C@@H](/C(C)=C/c4coc(C[C@]5(OC)C[C@H](OC)C[C@H]([C@H](O)/C=C(C)/C=C/[C@@H](C/C=C/Cl)OC)O5)n4)[C@H](C)[C@@H](OC(=O)/C=C\C[C@@H](C1)O2)[C@H]3C |  | ATCC 14503 | >64 µg/mL
O=C1CS[C@H](c2ccc(Cl)cc2)N1c1nc(N2CCOCC2)n[nH]1 |  | A39 | 25 µg/mL
CCCCCCCCCCCCCC(=O)NCCCN |  | ATCC 18804 | 4 µg/mL
C=C1C[C@@H]2C[C@@H]3CCO[C@@H](O3)c3coc(n3)/C=C/C[C@H]3O[C@@H](/C(C)=C/c4coc(C[C@]5(O)C[C@H](OC)C[C@H]([C@H](O)/C=C(C)/C=C/[C@@H](C/C=C/Cl)OC)O5)n4)[C@H](C)[C@@H](OC(=O)/C=C\C[C@@H](C1)O2)[C@H]3C |  | UCD-FR1 | 8 µg/mL
COc1cc(NC(C)CCCNC(=O)[C@H](CCCN=C(N)N)NC(=O)[C@@H](N)CCCN=C(N)N)c2ncccc2c1 |  |  | >20 µg/mL
CCC(C)CC(C)CCCCCCCCC(=O)N[C@H]1C[C@@H](O)[C@H](NCCN)NC(=O)[C@@H]2[C@@H](O)CCN2C(=O)[C@H]([C@H](O)CCN)NC(=O)[C@H]([C@H](O)[C@@H](O)c2ccc(O)cc2)NC(=O)[C@@H]2C[C@@H](O)CN2C(=O)[C@H]([C@@H](C)O)NC1=O |  | W111 | 1 µg/mL
CC(=O)N1CCN(c2ccc(OC[C@H]3CO[C@](Cn4ccnc4)(c4ccc(Cl)cc4Cl)O3)cc2)CC1 | pH 6 | 10 isolates | 0.06 µg/mL
COc1cc(NC(C)CCCNC(=O)CCC(NC(=O)[C@H](N)CCCCN)C(=O)O)c2nc(C(C)(C)C)ccc2c1 |  |  | >20 µg/mL
C=C1C[C@@H]2C[C@@H]3CCO[C@@H](O3)c3cccc(c3)/C=C/C[C@H]3O[C@@H](/C(C)=C/I)[C@H](C)[C@@H](OC(=O)/C=C\C[C@@H](C1)O2)[C@H]3C |  | 96-489 | >64 µg/mL
COC(=O)[C@H]1[C@@H]2C[C@@H](O[C@@H]3O[C@H](C)[C@@H](O)[C@H](N)[C@@H]3O)/C=C/C=C/C=C/C=C/C=C/C=C/C=C/[C@H](C)[C@@H](O)[C@H](C)[C@H](C)OC(=O)C[C@H](O)C[C@H](O)[C@@H](O)CC[C@H](O)C[C@H](O)C[C@](O)(C[C@@H]1O)O2 | pH 6 | 10 isolates | 2 µg/mL
CC1S[C@H](c2ccccc2)N(c2nc(N3CCOCC3)n[nH]2)C1=O |  | A39 | 25 µg/mL
CC(C)(O)c1cn(-c2ccc(Cl)cc2)nn1 |  | URM 4987 | 128 µg/mL
C/C(=N\NC(=S)Nc1ccc(Cl)cc1)c1ccccn1 |  | ATCC 10231 | 17 µM
C=C1C[C@@H]2C[C@@H]3CCO[C@@H](O3)c3cccc(c3)/C=C/C[C@H]3O[C@@H](/C(C)=C/C#N)[C@H](C)[C@@H](OC(=O)/C=C/C[C@@H](C1)O2)[C@H]3C |  | ATCC 14503 | >64 µg/mL

Repeating the first 4 entries:

SMILES,conditions,strain,result
Nc1[nH]c(=O)ncc1F,pH 7,15 isolates,0.125 µg/mL
CCC(C)CC(C)CCCCCCCCC(=O)N[C@H]1C[C@@H](O)[C@H](NCCN)NC(=O)[C@@H]2[C@@H](O)CCN2C(=O)[C@H]([C@H](O)CCN)NC(=O)[C@H]([C@H](O)[C@@H](O)c2ccc(O)cc2)NC(=O)[C@@H]2C[C@@H](O)CN2C(=O)[C@H]([C@@H](C)O)NC1=O,,373,0.12 µg/mL
COc1cc(NC(C)CCCNC(=O)CC(NC(=O)[C@@H](N)CCCN=C(N)N)C(=O)O)c2nc(C(C)(C)C)ccc2c1,,,>20 µg/mL
CCCCCCCC/C=C\CCCCCCCC(=O)NCCCN,,ATCC 18804,128 µg/mL